# Measurements published in paper PMC8092523 (Antimicrobial Agents and Chemotherapy, 2021).
# System: mc^27000:Δc− strain with pYL60 or pYL3
smiles,measurement,value
CN[C@@H]1[C@H](O)[C@H](NC)[C@H]2O[C@]3(O)[C@H](O[C@@H]2[C@H]1O)O[C@H](C)C[C@H]3NC(=O)Cc1ccc(Cl)cn1 [Spa],MIC50 higher for pYL60 strain than for empty vector (pYL3) strain,~4 fold
